Measurements reported in PubChem BioAssay AID504761 (Drosophila RNAi Screening Center, 2011)
Aim: 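Fly genes whose silencing reduces dengue virus type 2 infection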 (primary screen). Cells: D.Mel-2 cells from Drosophila. Reagent: long dsRNA against Drosophila genes. Treatment: infection with dengue virus type 2; dose and infection time not stated. Detection: 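Cells stained for dengue envelope protein and imaged; percent of infected cells per well on duplicate plates, ranked by infection, with stained nuclei counted for cell number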. Scale: infection score: higher = more virus-infected cells. Rule for the call: 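Low infection ranks in the two replicates (chance level up to 0.065) followed by a retest with a 1.5-fold or larger significant decrease, p below 0.05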. Calls: active = confirmed: knock-down lowers infection; inactive = not picked or not confirmed.
The deposit covers about 22,000 reagents; below is an unselected part of those that have a named target and a result. Over the whole deposit, 116 (0.52%) are marked active. 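Calls depend on retest data that are not deposited; infection was ranked per plate without normalising between plates; the unit of the infection score is not given.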 Unmarked entries are inactive. Reagents against one gene are numbered here. Further read-outs or replicates are left out here. Not stated in the record: the amount of reagent, the time to read-out.

CG15475 #1: infection score, replicate 1 = 4.11
CG15475 #2: infection score, replicate 1 = 3.11
CG4558: infection score, replicate 1 = 2.49
spz (spatzle) #1: infection score, replicate 1 = 1.84
spz (spatzle) #2: infection score, replicate 1 = 19.1
Rat1 (Rat1 5'-3' exoribonuclease): infection score, replicate 1 = 5.34
CG11037: infection score, replicate 1 = 8.44
ago (archipelago): infection score, replicate 1 = 7.54

Ordered by “infection score, replicate 1” (descending): some entries from above.
CG15475 #1: infection score, replicate 1 = 4.11
CG15475 #2: infection score, replicate 1 = 3.11

More reagents follow:
CG33191: infection score, replicate 1 = 8.28
mtTFB2 (mitochondrial transcription factor B2): infection score, replicate 1 = 8.6
AstC-R2 (Allatostatin C receptor 2): infection score, replicate 1 = 2.88
CG31347: infection score, replicate 1 = 1.59
